Source: US9120849B2 (priority 2000, dated 2015)

System: HIV RNA
Assay: Roche COBAS HIV-1 Monitor PCR assay quantitating HIV RNA copy number of inactivated virus
Design: species or system human immunodeficiency virus (HIV)
Conditions: samples diluted 1:1000, copy number at this dilution

In the case of paraformaldehyde, the “HIV RNA copy no.” value (HIV treated with 0.63% paraformaldehyde) is reported as 325,000, the “HIV RNA copy no.” value (HIV treated with 1.25% paraformaldehyde) is reported as 48,000 and the “HIV RNA copy no.” value (HIV treated with 2.50% paraformaldehyde) is reported as 12,678. The “HIV RNA copy no.” value (HIV treated with 5.00% paraformaldehyde) was 7,192.
